PubChem BioAssay AID624099 | ICCB-Longwood, 2012
Screen: 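Host factors E2 relies on to silence an HPV18 LCR reporter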 (primary screen). Cell system: human C33A cervical carcinoma cells (HPV-negative) stably expressing BPV1 E2 and an HPV18 LCR luciferase reporter. Reagents: siRNA pool against human genes, 40 nM. Time to read-out: 72 h. Read-out: 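HPV18 LCR reporter light per well, converted to plate-wise z-scores that exclude control wells, and averaged over triplicate plates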. Scale: mean z-score and z-score: higher = stronger reporter signal, weaker E2 silencing. Rule for the call: 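Hit if mean z-score reaches 2 and two or more of three replicate z-scores also reach 2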.
In all, the deposit lists about 21,000 reagents; this is an unselected part. In the full data, 497 (2.4%) got an active call. 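Higher z means weaker E2 silencing; only reporter increases were scored, and knock-downs that hurt cell survival may mask genuine repressor factors.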 Entries without a mark were called inactive.

no.	gene knocked down	mean z-score	z-score, replicate A	z-score, replicate B	z-score, replicate C
1	NPSR1-AS1	-0.12	0.18	0	-0.53
2	LOC343717 (retired record)	0.91	0.85	0.98	0.9
3	LDLRAP1	0.62	0.68	0.57	0.61
4	FBXL14	1.79	2	1.82	1.55
5	TP53I3	-0.36	-0.21	-0.42	-0.46
6	GP1BB	0.15	0.03	0.29	0.13
7	RAP1GAP	0.71	0.73	0.62	0.78
8	HLCS	0.61	0.52	0.31	1

Limited to “z-score, replicate B” (2 entries from above):
RAP1GAP: 0.62
HLCS: 0.31

Continued.
no.	gene knocked down	mean z-score	z-score, replicate A	z-score, replicate B	z-score, replicate C
9	SLC5A1	-0.63	-0.89	-0.84	-0.18
10	KIAA1958	0.04	-0.18	0.3	0
11	PCBD2	0.35	0.38	0.39	0.29
12	TXN	-0.79	-0.17	-1.06	-1.15
13	TRADD	-0.75	-0.81	-0.58	-0.85
14	CUEDC1	-0.26	-0.31	-0.23	-0.24
15	LINC00839	-0.07	-0.06	-0.26	0.1
16	LOC402565 (retired record)	-0.21	-0.17	-0.44	0
17	ADCY5	1.43	1.32	1.63	1.34
18	HMCN1	0.05	-0.24	0.3	0.08
19	LOC153297 (retired record)	-0.35	-0.3	-0.13	-0.61
20	PLAGL1	0.75	1.09	0.74	0.41
21	SBNO2	0.47	0.22	0.62	0.58
22	RRAGD	0.66	0.57	0.51	0.91
23	ISX	0.1	0.09	0	0.21
